Measured values reported in ChEMBL document CHEMBL2203066 (J Med Chem, 2012).

Target: Neuraminidase (Influenza A virus, UniProt Q6Q793)

CCC(CC)O[C@@H]1C=C(P(=O)(O)O)C[C@H](N)[C@H]1NC(C)=O [TAMIPHOSPHOR]
IC50: 0.52 nM
